Laboratory results: PubChem BioAssay AID504761 (Drosophila RNAi Screening Center, 2011)
The screen tested about 22,000 reagents; shown is an unselected part of those that have a named target and a result. Of all reagents, 116 (0.52%) are marked active. 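Calls depend on retest data that are not deposited; infection was ranked per plate without normalising between plates; the unit of the infection score is not given.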 The raw values are shown without normalisation. Reagents against one gene are numbered here. No sequences are given here. Not given: the amount of reagent, the time to read-out.

Purpose: 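Fly genes whose silencing reduces dengue virus type 2 infection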 (primary screen)
Cells: D.Mel-2 cells from Drosophila
Reagents: long dsRNA against Drosophila genes
Challenge: infection with dengue virus type 2; dose and infection time not stated
Measurement: 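Per well on two replicate plates, imaging gave the percent of cells positive for viral envelope protein, ranked by infection, and a nuclear count of cells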
Direction: infection score: higher = more virus-infected cells; cell count: higher = more cells in the well
Hit rule: 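Low infection ranks in the two replicates (chance level up to 0.065) followed by a retest with a 1.5-fold or larger significant decrease, p below 0.05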
Calls: active = confirmed: knock-down lowers infection; inactive = not picked or not confirmed

| target gene | reagent no. | infection score, replicate 1 | infection score, replicate 2 | cell count, replicate 1 | cell count, replicate 2 | Call |
| --- | --- | --- | --- | --- | --- | --- |
| CG11815 | 1 | 2.33 | 2.67 | 5782 | 6699 | inactive |
| CG11815 | 2 | 31.5 | 12 | 5355 | 5687 | inactive |
| IntS4 (Integrator 4) | 1 | 2.69 | 0.55 | 3859 | 4173 | inactive |
| CG42329 | 1 | 3.2 | 5.19 | 6777 | 7091 | inactive |
| CG42329 | 2 | 4.95 | 1.5 | 6652 | 6750 | inactive |
| CG9861 | 1 | 10 | 24.6 | 6273 | 5661 | inactive |
| CG9861 | 2 | 15.6 | 24.2 | 5134 | 5278 | inactive |
| RalGPS (Ral GEF with PH domain and SH3 binding motif) | 1 | 6.58 | 7.44 | 6546 | 5884 | inactive |
| RalGPS (Ral GEF with PH domain and SH3 binding motif) | 2 | 13.5 | 8.68 | 5214 | 6219 | inactive |
| ND-30 (NADH dehydrogenase (ubiquinone) 30 kDa subunit) | 1 | 19.9 | 17.6 | 4645 | 3544 | inactive |
| yip2 (yippee interacting protein 2) | 1 | 21.1 | 10.1 | 5218 | 5965 | inactive |
| Naa35 (N(alpha)-acetyltransferase 35) | 1 | 12.7 | 16.2 | 6034 | 5988 | inactive |
| Naa35 (N(alpha)-acetyltransferase 35) | 2 | 1.57 | 0.93 | 6678 | 6480 | active |
| Gr47a (Gustatory receptor 47a) | 1 | 6.41 | 11.5 | 6378 | 6563 | inactive |
| CG42232 | 1 | 42.1 | 33.8 | 4225 | 4994 | inactive |
| CG42232 | 2 | 17.1 | 12.6 | 5550 | 5756 | inactive |
| CG42232 | 3 | 13 | 22.1 | 5944 | 1667 | inactive |
| CG31897 | 1 | 1.18 | 1.27 | 6635 | 6614 | inactive |
| CG32074 | 1 | 2.35 | 2.73 | 5918 | 6510 | inactive |
| CG32074 | 2 | 5.78 | 1.77 | 6126 | 5937 | inactive |
| CG8031 | 1 | 4.65 | 11.5 | 2020 | 3168 | inactive |
| GstE4 (Glutathione S transferase E4) | 1 | 12.5 | 16.3 | 6704 | 3717 | inactive |
| GstE4 (Glutathione S transferase E4) | 2 | 3.03 | 2.33 | 6467 | 5829 | inactive |
| RhoGAP1A (Rho GTPase activating protein at 1A) | 1 | 3.35 | 7.91 | 5826 | 5917 | inactive |
| RhoGAP1A (Rho GTPase activating protein at 1A) | 2 | 2.36 | 3.42 | 5973 | 5845 | inactive |
| topi (matotopetli) | 1 | 3.69 | 2.54 | 6072 | 6614 | inactive |
| Amun | 1 | 14 | 10.9 | 5769 | 6120 | inactive |
| Amun | 2 | – | 12.1 | 508 | 6291 | inactive |
| Tpt (tRNA 2'-phosphotransferase) | 1 | 0.72 | 2.48 | 6346 | 6403 | inactive |

Reagents listed so far marked active, once more:
| target gene | reagent no. | infection score, replicate 1 | infection score, replicate 2 | cell count, replicate 1 | cell count, replicate 2 | Call |
| --- | --- | --- | --- | --- | --- | --- |
| Naa35 (N(alpha)-acetyltransferase 35) | 2 | 1.57 | 0.93 | 6678 | 6480 | active |

Additional reagents:
| target gene | reagent no. | infection score, replicate 1 | infection score, replicate 2 | cell count, replicate 1 | cell count, replicate 2 | Call |
| --- | --- | --- | --- | --- | --- | --- |
| U2af38 (U2 small nuclear riboprotein auxiliary factor 38) | 1 | 6.35 | 2.59 | 4742 | 5293 | inactive |
| U2af38 (U2 small nuclear riboprotein auxiliary factor 38) | 2 | 27.9 | 25 | 4928 | 3380 | inactive |
| CG30472 | 1 | 1.45 | 3.27 | 5859 | 6430 | inactive |
| CG30472 | 2 | 8.58 | 5.82 | 6762 | 7023 | inactive |
| S-Lap7 (Sperm-Leucylaminopeptidase 7) | 1 | 29.5 | 15.4 | 5560 | 6483 | inactive |
| S-Lap7 (Sperm-Leucylaminopeptidase 7) | 2 | 3.87 | 18.1 | 6823 | 5902 | inactive |
| CG40191 | 1 | 24.8 | 5.6 | 4963 | 6821 | inactive |
| Pgant4 (Polypeptide N-Acetylgalactosaminyltransferase 4) | 1 | 7.44 | 2.93 | 6825 | 6714 | inactive |
| Pgant4 (Polypeptide N-Acetylgalactosaminyltransferase 4) | 2 | – | – | 447 | 360 | inactive |
| Ubc87F (Ubiquitin conjugating enzyme 87F) | 1 | 1.25 | 5.16 | 6377 | 6360 | inactive |
| Ubc87F (Ubiquitin conjugating enzyme 87F) | 2 | 8.82 | 7.97 | 5761 | 6351 | inactive |
| CG31797 | 1 | 1.43 | 13.2 | 6525 | 5624 | inactive |
| CG31797 | 2 | 3.16 | 8.26 | 6207 | 6177 | inactive |
| CG11211 | 1 | 6.79 | 11.9 | 6334 | 6678 | inactive |
| MP1 (Melanization Protease 1) | 1 | 1.85 | 2.36 | 6799 | 6734 | inactive |
| MP1 (Melanization Protease 1) | 2 | 0.44 | 7.51 | 450 | 1863 | inactive |
| sicily (severe impairment of CI with lengthened youth) | 1 | 21.3 | 15.3 | 5457 | 5778 | inactive |
| Glg1 (Golgi complex-localized glycoprotein 1) | 1 | 1.79 | 14.7 | 6662 | 6695 | inactive |
| Glg1 (Golgi complex-localized glycoprotein 1) | 2 | 10.8 | 12.5 | 5620 | 5060 | inactive |
| Glg1 (Golgi complex-localized glycoprotein 1) | 3 | 4.62 | 9.27 | 5672 | 4216 | inactive |
| ed (echinoid) | 1 | 1.1 | 5.47 | 6663 | 6748 | inactive |
| ed (echinoid) | 2 | 2.51 | 9.13 | 6576 | 6671 | inactive |
| ed (echinoid) | 3 | 1.59 | 11.2 | 6931 | 6920 | inactive |
| ed (echinoid) | 4 | 2.4 | 2.4 | 6503 | 6886 | inactive |
| tbrd-2 | 1 | 4.85 | 3.38 | 6023 | 6450 | inactive |
| PolD2 (DNA polymerase delta subunit 2) | 1 | 42.3 | 13.3 | 4580 | 5394 | inactive |
| CG31121 | 1 | – | 18.5 | 274 | 2069 | inactive |
| CG31121 | 2 | 11.9 | 10 | 5383 | 800 | inactive |
| CG1208 | 1 | 0.23 | 25.9 | 443 | 5165 | inactive |
